Results taken from patent US20240168030A1, “DIRECT FLUORESCENT GLYCAN LABELING” (BIO-TECHNE CORPORATION, priority 2019, published 2024).

Assay: Selection of labeling enzyme and substrate optimization on released RBD glycans

## α-2,6-sialyltransferase 1
CMP-Cy5-Sialic acid, FIG. 26A
  Signal among sialyltransferases ST6Gal1, ST3Gal3, ST3Gal4 and ST3Gal6: stronger signals

## cytidine monophosphate activated Cy5-conjugated sialic acid
Labeling by ST6Gal1 or ST3Gal6, 2 hours at 37° C., FIG. 26C
  Donor input at which stronger signal intensities were observed: around 0.4 nmol
